## Mutational tolerance of the Zika virus NS2B-NS3 protease

Data from the supplement of Ni et al. 2025, doi:10.1038/s41467-025-63602-z.

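Mutant virus pools were grown in human Huh-7.5 cells. Deep sequencing gave the change in frequency of each mutant relative to wild type, averaged over three replicate libraries (two for positions 207-308).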

The scanned region of Zika virus MR766 is shown below (positions 1-308): NS2B is 2-131, NS3 begins at position 132.
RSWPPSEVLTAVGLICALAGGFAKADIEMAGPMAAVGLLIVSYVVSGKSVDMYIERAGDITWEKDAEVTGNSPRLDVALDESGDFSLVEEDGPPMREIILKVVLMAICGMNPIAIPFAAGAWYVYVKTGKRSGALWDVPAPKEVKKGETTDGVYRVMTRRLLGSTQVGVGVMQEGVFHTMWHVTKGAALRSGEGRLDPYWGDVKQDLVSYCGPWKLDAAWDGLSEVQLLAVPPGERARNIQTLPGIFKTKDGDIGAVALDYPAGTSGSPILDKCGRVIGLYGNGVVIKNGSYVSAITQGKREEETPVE

Values are log2 effects on growth: 0 is wild type, lower means poorer growth. A change reads original residue, position, new residue. This list holds changes to tryptophan only. The authors count -1 or higher as tolerated. Position 1 is the last residue of NS2A. Six mutants with high scores were retested singly and none clearly outgrew wild type, so positive values are not proof of better growth. The region was split into three libraries (1-103, 104-206, 207-308).

For M172W the result was -5.56.
For Q173W the result was -2.41.
For E174W the result was -5.55.
For G175W the result was -4.79.
For V176W the result was -5.13.
For F177W the result was -5.43.
For H178W the result was -5.20.
For T179W the result was -5.71.
For M180W the result was -5.27.
For H182W the result was -4.75.
For V183W the result was -5.40.
For T184W the result was -5.63.
For K185W the result was -5.39.
For G186W the result was -5.47.
For A187W the result was -5.39.
For A188W the result was -4.70.
For L189W the result was -4.68.
For R190W the result was -5.45.
For S191W the result was -5.06.
For G192W the result was -5.98.
For E193W the result was -5.21.
For G194W the result was -5.80.
For R195W the result was -5.66.
For L196W the result was -5.37.
For D197W the result was -6.46.
For P198W the result was -6.39.
For Y199W the result was -1.07.
For G201W the result was -6.71.
For D202W the result was -5.61.
For V203W the result was -7.13.
For K204W the result was -7.03.
For Q205W the result was -1.74.
For D206W the result was -6.56.
For L207W the result was -7.21.
For V208W the result was -7.84.
For S209W the result was -5.12.
For Y210W the result was -6.59.

The last 4 entries again:

L207W: -7.21.
V208W: -7.84.
S209W: -5.12.
Y210W: -6.59.